Data as given in PubChem BioAssay AID624099 (ICCB-Longwood, 2012).

Assay: 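Host factors E2 relies on to silence an HPV18 LCR reporter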 (primary screen)
System: human C33A cervical carcinoma cells (HPV-negative) stably expressing BPV1 E2 and an HPV18 LCR luciferase reporter
Knock-down reagent: siRNA pool against human genes, 40 nM
Duration: 72 h
Detection: 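Per-well luciferase luminescence, z-scored on each plate against the plate mean and SD with control wells left out, then averaged across three replicate plates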
Direction: mean z-score and z-score: higher = stronger reporter signal, weaker E2 silencing
Hit rule: 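Hit if mean z-score reaches 2 and two or more of three replicate z-scores also reach 2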
The whole screen tested about 21,000 reagents; this is an unselected part. In the full data, 497 (2.4%) were called active. 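Higher z means weaker E2 silencing; only reporter increases were scored, and knock-downs that hurt cell survival may mask genuine repressor factors.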 Entries without a mark were called inactive.

With knock-down of DNM2, the screen gave mean z-score 1.06; z-score, replicate A = 1.06; z-score, replicate B = 1.14; z-score, replicate C = 0.98.
After knock-down of MSS51 the results were mean z-score -0.24; z-score, replicate A = -0.35; z-score, replicate B = -0.12; z-score, replicate C = -0.24.
After knock-down of CFP the results were mean z-score -0.32; z-score, replicate A = -0.04; z-score, replicate B = -0.35; z-score, replicate C = -0.58.
Silencing of CDH26 resulted in: mean z-score -0.1; z-score, replicate A = -0.42; z-score, replicate B = -0.14; z-score, replicate C = 0.26.
For NSUN5P2 the deposit lists mean z-score -1.63; z-score, replicate A = -1.65; z-score, replicate B = -1.66; z-score, replicate C = -1.57.
Knock-down of SEC13 came out at: mean z-score 0.08; z-score, replicate A = 0.11; z-score, replicate B = -0.23; z-score, replicate C = 0.37.
After knock-down of TMEM138 the results were mean z-score -0.21; z-score, replicate A = 0.45; z-score, replicate B = -0.78; z-score, replicate C = -0.29.
For TINF2, the entry reads mean z-score 0.04; z-score, replicate A = 0.23; z-score, replicate B = 0.03; z-score, replicate C = -0.12.
With knock-down of GTF2H4, the record shows mean z-score -0.43; z-score, replicate A = -0.38; z-score, replicate B = -0.38; z-score, replicate C = -0.52.
With knock-down of NOVA2, the record shows mean z-score 0.21; z-score, replicate A = 0.34; z-score, replicate B = 0.4; z-score, replicate C = -0.13.
With knock-down of ZNF48, the screen gave mean z-score 0.1; z-score, replicate A = -0.05; z-score, replicate B = -0.16; z-score, replicate C = 0.5.
With knock-down of PRSS30P, the record shows mean z-score 0.73; z-score, replicate A = 0.57; z-score, replicate B = 1.08; z-score, replicate C = 0.52.
For UBQLN3, the values are mean z-score 0.3; z-score, replicate A = 0.49; z-score, replicate B = 0.03; z-score, replicate C = 0.39.
With knock-down of CXXC1, the record shows mean z-score 0.88; z-score, replicate A = 1.15; z-score, replicate B = 0.67; z-score, replicate C = 0.84.

2 successive reagents already listed, quoted:
NSUN5P2 | mean z-score = -1.63; z-score, replicate A = -1.65; z-score, replicate B = -1.66; z-score, replicate C = -1.57
SEC13 | mean z-score = 0.08; z-score, replicate A = 0.11; z-score, replicate B = -0.23; z-score, replicate C = 0.37
